Source: paper PMC4514760, “A Chimeric HIV-1 gp120 Fused with Vaccinia Virus 14K (A27) Protein as an HIV Immunogen” (2015)

Key:
[1] = target: HIV-1 gp120-14K protein purified from CHO-K1 cells (HIV-1 (clade B, isolate BX08) | vaccinia virus) (UniProt P11258); assay: native gel or EMSA
[2] = target: HIV-1 gp120-14K protein purified from CHO-K1 cells (HIV-1 (clade B, isolate BX08) | vaccinia virus) (UniProt P11258); assay: negative-stain electron microscopy

HIV-1 gp120-14K protein purified from CHO-K1 cells (from UniProt P11258 29-110)
stoichiometry N [1]: 3
stoichiometry N [2]: 3
